{"source": "PubChem BioAssay AID504761 (Drosophila RNAi Screening Center, 2011)", "purpose": "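Fly genes whose silencing reduces dengue virus type 2 infection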 (primary screen)", "cells": "D.Mel-2 cells from Drosophila", "knock-down reagent": "long dsRNA against Drosophila genes", "treatment": "infection with dengue virus type 2; dose and infection time not stated", "read-out": "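Per well on two replicate plates, imaging gave the percent of cells positive for viral envelope protein, ranked by infection, and a nuclear count of cells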", "reading the numbers": "infection score: higher = more virus-infected cells", "active means": "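Very low infection ranking in both replicate wells (chance probability at most 0.065), then a retest showing infection dropped 1.5-fold or more at p below 0.05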", "meaning of the calls": "active = confirmed: knock-down lowers infection; inactive = not picked or not confirmed", "note": "The deposit covers about 22,000 reagents; this is an unselected part of those with a known target gene and a result. Over the whole deposit, 116 (0.52%) got an active call. 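Calls depend on retest data that are not deposited; infection was ranked per plate without normalising between plates; the unit of the infection score is not given.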 Not all columns of the deposit are shown. No sequences are given here. Not given: the amount of reagent, the time to read-out."}
{"target": "ytr (yantar)", "PubChem SID": "SID104184098", "infection score, replicate 1": 10.7, "call": "inactive"}
{"target": "ytr (yantar)", "PubChem SID": "SID104201647", "infection score, replicate 1": 2.17, "call": "inactive"}
{"target": "ytr (yantar)", "PubChem SID": "SID104203954", "infection score, replicate 1": 0.72, "call": "inactive"}
{"target": "CG5334", "PubChem SID": "SID104199733", "infection score, replicate 1": 8.97, "call": "inactive"}
{"target": "CG15472", "PubChem SID": "SID104197847", "infection score, replicate 1": 2.86, "call": "inactive"}
{"target": "ast (asteroid)", "PubChem SID": "SID104180595", "infection score, replicate 1": 2.61, "call": "inactive"}
{"target": "ast (asteroid)", "PubChem SID": "SID104206517", "infection score, replicate 1": 13.1, "call": "inactive"}
{"target": "Atf-2 (Activating transcription factor-2)", "PubChem SID": "SID104183922", "infection score, replicate 1": 15.6, "call": "inactive"}
{"target": "Atf-2 (Activating transcription factor-2)", "PubChem SID": "SID104184205", "infection score, replicate 1": 0.86, "call": "inactive"}
{"target": "Pgant35A (Polypeptide N-acetylgalactosaminyltransferase 35A)", "PubChem SID": "SID104183349", "infection score, replicate 1": 13.9, "call": "inactive"}
{"target": "Pgant35A (Polypeptide N-acetylgalactosaminyltransferase 35A)", "PubChem SID": "SID104206793", "infection score, replicate 1": 5.18, "call": "inactive"}
{"target": "Lkb1 (Lkb1 kinase)", "PubChem SID": "SID104196273", "infection score, replicate 1": 11.5, "call": "inactive"}
{"target": "CG17167", "PubChem SID": "SID104200694", "infection score, replicate 1": 9.64, "call": "inactive"}
{"target": "CG17167", "PubChem SID": "SID104200695", "infection score, replicate 1": 3.41, "call": "inactive"}
{"target": "Mur29B (Mucin related 29B)", "PubChem SID": "SID104180810", "infection score, replicate 1": 4.05, "call": "inactive"}
{"target": "Mur29B (Mucin related 29B)", "PubChem SID": "SID104182168", "infection score, replicate 1": 9.48, "call": "inactive"}
{"target": "CG10177", "PubChem SID": "SID104193993", "infection score, replicate 1": 5.13, "call": "inactive"}
{"target": "CG10177", "PubChem SID": "SID104206432", "infection score, replicate 1": 14.5, "call": "inactive"}
{"target": "Polr2F (RNA polymerase II, I and III subunit F)", "PubChem SID": "SID104192158", "infection score, replicate 1": 28.3, "call": "inactive"}
{"target": "Polr2F (RNA polymerase II, I and III subunit F)", "PubChem SID": "SID104207328", "infection score, replicate 1": 17.2, "call": "inactive"}
{"target": "Git (G protein-coupled receptor kinase interacting ArfGAP)", "PubChem SID": "SID104186412", "infection score, replicate 1": 28.1, "call": "inactive"}
{"target": "Git (G protein-coupled receptor kinase interacting ArfGAP)", "PubChem SID": "SID104207111", "infection score, replicate 1": 1.62, "call": "inactive"}

4 of these entries in another layout:
target	PubChem SID	infection score, replicate 1	call
Atf-2 (Activating transcription factor-2)	SID104183922	15.6	inactive
Atf-2 (Activating transcription factor-2)	SID104184205	0.86	inactive
Pgant35A (Polypeptide N-acetylgalactosaminyltransferase 35A)	SID104183349	13.9	inactive
Pgant35A (Polypeptide N-acetylgalactosaminyltransferase 35A)	SID104206793	5.18	inactive
